Legend:
[1] = target: Recombinant gp120 from HIV-1 MN strain (HIV-1 MN strain) (UniProt P05877); assay: SPR (BIAcore), gp120 MN coupled to CM5 chip, KD = kdiss/kass
[2] = target: Recombinant gp120 from HIV-1 MN strain (HIV-1 MN strain) (UniProt P05877); assay: SPR (BIAcore), gp120 MN coupled to CM5 chip, immunotoxin in solution
[3] = target: HIV-1 envelope glycoprotein (Env) expressed on ENV15 cells (HIV-1); assay: cell-based or functional assay
[4] = target: HIV-1 Env expressed on chronically infected 8E5 lymphocyte cells (HIV-1); assay: cell-based or functional assay

Q: With “3B3(Fv)-PE38 immunotoxin (from UniProt P11439 278-389; P11439 406-638) (scFv)” as the substance, how does the Kd [1] read?
A: The Kd was 37 nM.

Q: And the koff [2]?
A: The koff was 0.00703 s⁻¹.

Q: What about the kon [2] of the same substance?
A: The kon was 192000 M⁻¹ s⁻¹.

Q: What about the IC50, ng/ml (inhibition of 3H-Leu incorporation into cellular protein, 20 hrs) [3] of the same substance?
A: The IC50, ng/ml (inhibition of 3H-Leu incorporation into cellular protein, 20 hrs) was 2.5 ng/mL.

Q: And the IC50, ng/ml (WST-1 cell viability, 5 days) [4]?
A: The IC50, ng/ml (WST-1 cell viability, 5 days) was 2.1 ng/mL.

Q: And the fold more active than CD4-PE40 (cytotoxicity on 8E5 cells) [4]?
A: The fold more active than CD4-PE40 (cytotoxicity on 8E5 cells) was 40 fold.

Source: patent publication EP1085908B1
